Data as given in US20040076622A1, “Local production and/or delivery of anti-cancer agents by stromal cell precursors” (Board of Regents, The University of Texas System, priority 2002, published 2004).

Tested on: CD34+ CML stem cells
Test: Growth and viability of CD34 enriched CML stem cells (trypan blue)
Type: cell-based, human
Conditions: 1000 U Intron A, or coculture on induced MSC

For “Intron A: pharmacy grade recombinant IFN-α (Intron A, Plough Schering)”, the “Growth and viability of CD34+ CML stem cells” value was “equally effective at reducing growth and viability”.
